Measured values from several laboratories, pooled; numbers as filed in NIAID ChemDB.

Shared fields: host cell toxicity; cell line: HSB-2; read-out: CC50

Blank or dashed fields: not listed here. Neighbouring rows are from separate reports. CCn is the concentration with n% toxicity to the cells.

compound,method,result
O=C(NCc1ccc(Cl)cc1)c1cn2c3c(cc(CN4CCOCC4)cc3c1=O)OC(c1cccnc1)C2,MTS,>18.8 µM
CCCCCCCCCCCCCCCCOP(=O)(O)CO[C@H](CO)Cn1ccc(N)nc1=O,-,>1 µM
C#CCNc1nc(N)nc2c1ncn2/C=C1/C[C@@H]1CO,-,162 µM
Cc1cn([C@H]2S[C@@H](CO)[C@H](O)[C@H]2O)c(=O)[nH]c1=O,-,>100 µg/mL
COc1nc(N)nc2c1ncn2/C=C1/CC1(CO)CO,-,>168 µM
CCCCCCCCCCCCCCCCCCOCCCOP1(=O)CO[C@@H](Cn2ccc(N)nc2=O)CO1,-,>1 µM
OC[C@H]1O[C@@H](n2c(Br)nc3cc(Cl)c(Cl)cc32)[C@H](O)[C@@H]1O,-,>125 µM
CCCCCCCC/C=C\CCCCCCCOCCOP1(=O)CO[C@@H](Cn2ccc(N)nc2=O)CO1,-,>1 µM
Nc1nc(NCC2CC2)c2ncn(/C=C3/C[C@@H]3CO)c2n1,-,>175 µM
O[C@@H]1[C@H](O)[C@H](O)CO[C@H]1n1c(Br)nc2cc(Cl)c(Cl)cc21,-,>126 µM
CCCOc1nc(N)nc2c1ncn2/C=C1/C[C@@H]1CO,-,26 µM
O=C(NCc1ccc(Cl)cc1)c1cn2c(CCO)cc3cc(CN4CCOCC4)cc(c1=O)c32,MTS,>20.8 µM
CCCCCCCC/C=C\CCCCCCCCOCCOP(=O)(O)CO[C@H](CO)Cn1ccc(N)nc1=O,-,>1.6 µM
O=C(O)P(=O)(O)O,neutral red,>166 µM
CCCSc1nc(N)nc2c1ncn2/C=C1/C[C@@H]1CO,-,61 µM

The last 2 rows once more:

compound,method,result
O=C(O)P(=O)(O)O,neutral red,>166 µM
CCCSc1nc(N)nc2c1ncn2/C=C1/C[C@@H]1CO,-,61 µM